Data as given in PubChem BioAssay AID504761 (Drosophila RNAi Screening Center, 2011)
Test: 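Fly genes whose silencing reduces dengue virus type 2 infection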 (primary screen). Cells: D.Mel-2 cells from Drosophila. Reagent: long dsRNA against Drosophila genes. Conditions: infection with dengue virus type 2; dose and infection time not stated. Read-out: 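Per well on two replicate plates, imaging gave the percent of cells positive for viral envelope protein, ranked by infection, and a nuclear count of cells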. Direction: infection score: higher = more virus-infected cells; cell count: higher = more cells in the well. Active means: 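Very low infection ranking in both replicate wells (chance probability at most 0.065), then a retest showing infection dropped 1.5-fold or more at p below 0.05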. Meaning of the calls: active = confirmed: knock-down lowers infection; inactive = not picked or not confirmed.
The screen tested about 22,000 reagents; this is an unselected part of those that have a named target and a result. Over the whole deposit, 116 (0.52%) were called active. 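Calls depend on retest data that are not deposited; infection was ranked per plate without normalising between plates; the unit of the infection score is not given.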 Raw values vary from plate to plate and are shown uncorrected. Entries without a mark were called inactive. Not given: the amount of reagent, the time to read-out.

target gene | dsRNA | infection score, replicate 1 | infection score, replicate 2 | cell count, replicate 1 | cell count, replicate 2
CG30380 (GeneID 246579) | DRSC05069 | 0.09 | 0.44 | 6518 | 6140
betaNACtes1 (GeneID 32360) | DRSC19534 | 11.8 | 6.31 | 4041 | 5453
betaNACtes1 (GeneID 32360) | DRSC26176 | 10.3 | 2.38 | 5065 | 6388
CG42749 (GeneID 31438) | DRSC18091 | 3.18 | 3.07 | 6157 | 6215
CG42749 (GeneID 31438) | DRSC18092 | 18.4 | 15.6 | 5702 | 3857
CG42749 (GeneID 31438) | DRSC29102 | 23.6 | 15.8 | 4773 | 3817
CG4829 (GeneID 32672) | DRSC19920 | 2.74 | 1.89 | 6100 | 6042
scu (GeneID 32789) | DRSC20369 | 2.62 | 5.37 | 6781 | 6631
scu (GeneID 32789) | DRSC27026 | 8.94 | 12.6 | 6051 | 6165
CG12715 (GeneID 32252) | DRSC19492 | 0.29 | 2.25 | 5432 | 5862
lectin-24A (GeneID 53543) | DRSC00604 | 7.31 | 5.65 | 6399 | 5965
Polr2J (GeneID 35043) | DRSC02995 | 2.46 | 1.19 | 6613 | 6822
Polr2J (GeneID 35043) | DRSC27111 | 34.1 | 24.6 | 4512 | 2523
CG34041 (GeneID 3885583) | DRSC22276 | 4.88 | 29.3 | 5693 | 4901
CG34041 (GeneID 3885583) | DRSC30023 | 2.19 | 2.48 | 6407 | 6320
Surf4 (GeneID 41864) | DRSC16875 | 1.99 | 2.16 | 6318 | 6429
Hou (GeneID 32852) | DRSC20001 | 1.85 | 2.76 | 6657 | 7053
Hou (GeneID 32852) | DRSC22347 | 6.4 | 14.2 | 5613 | 6452
Hou (GeneID 32852) | DRSC26803 | 15.2 | 9.47 | 5899 | 6419
robl62A (GeneID 38170) | DRSC08153 | 3.51 | 3.71 | 5954 | 5951
jar (GeneID 42889) | DRSC16974 | 14.6 | 6.22 | 5651 | 7009
MESR6 (GeneID 40083) | DRSC10720 | 17.8 | 6.96 | 2697 | 6794
MESR6 (GeneID 40083) | DRSC28344 | 19.5 | 15 | 6174 | 5041
CG1227 (GeneID 40872) | DRSC12534 | 17.2 | 23 | 4445 | 5686
CG1227 (GeneID 40872) | DRSC25952 | 5.55 | 0.79 | 6562 | 6321
CG5913 (GeneID 43132) | DRSC15916 | 6.89 | 8.06 | 6907 | 5445
AANATL5 (GeneID 37210) | DRSC05994 | 6.59 | 2.94 | 6042 | 6385
ND-B22 (GeneID 34747) | DRSC03193 | 11.5 | 7.6 | 5590 | 6174
ND-B22 (GeneID 34747) | DRSC28526 | 0.24 | 31.5 | 425 | 4280
CG13476 (GeneID 39602) | DRSC10019 | 0.56 | 3.11 | 6112 | 6268
CG4942 (GeneID 39044) | DRSC10462 | 9.54 | 0.93 | 901 | 428
Ucp4A (GeneID 32764) | DRSC19996 | 0.93 | 1.8 | 6267 | 6504
Ucp4A (GeneID 32764) | DRSC27013 | 6.35 | 1.92 | 6235 | 6200
CG12693 (GeneID 31375) | DRSC17882 | 4.57 | 3.08 | 1488 | 6717
Lhr (GeneID 36957) | DRSC06759 | 9.26 | 2.71 | 6390 | 921
Lhr (GeneID 36957) | DRSC26915 | 26 | 20.5 | 5979 | 6384
Rab3-GEF (GeneID 32442) | DRSC19954 | 5.22 | 4.6 | 6344 | 6647
Rab3-GEF (GeneID 32442) | DRSC19955 | 0.28 | 21.4 | 362 | 4564
Rab3-GEF (GeneID 32442) | DRSC27720 | 9.3 | 8.64 | 5894 | 6657
NFAT (GeneID 32321) | DRSC18991 | 3.91 | 5.6 | 6270 | 5554
NFAT (GeneID 32321) | DRSC19393 | – | 33.3 | 354 | 5135
NFAT (GeneID 32321) | DRSC24828 | 0.74 | 2.39 | 5961 | 5930
NFAT (GeneID 32321) | DRSC29663 | 20.2 | 26.1 | 2892 | 4127
htt (GeneID 43392) | DRSC16970 | 3.36 | 3.17 | 5620 | 6209
lobo (GeneID 4379864) | DRSC14662 | 11.5 | 8.28 | 6926 | 1208
lobo (GeneID 4379864) | DRSC14663 | 6.17 | 7.57 | 5833 | 6528
lobo (GeneID 4379864) | DRSC29681 | – | 1.15 | 387 | 348
Or43a (GeneID 35644) | DRSC07485 | 4.55 | 7.15 | 6833 | 6195
Cyp4aa1 (GeneID 36752) | DRSC07368 | 5.74 | 7.88 | 6688 | 6347
Cyp4aa1 (GeneID 36752) | DRSC27648 | 7.87 | 7.36 | 3114 | 6387
Cenp-C (GeneID 41014) | DRSC14371 | 10.7 | 12.6 | 2923 | 4045
Cenp-C (GeneID 41014) | DRSC29707 | 5.32 | 14.2 | 6162 | 5907
Cdk12 (GeneID 40385) | DRSC11836 | 19.5 | 33.9 | 2310 | 2690
Cdk12 (GeneID 40385) | DRSC23323 | 7.62 | 23.8 | 3728 | 3044
Cdk12 (GeneID 40385) | DRSC29623 | 39.6 | 1.91 | 2241 | 472
Oamb (GeneID 43982) | DRSC13433 | 0.86 | 0.08 | 6052 | 6073
Oamb (GeneID 43982) | DRSC15120 | 3.13 | 2.51 | 6527 | 6134
Oamb (GeneID 43982) | DRSC16763 | 1.06 | 3.19 | 6589 | 6059

Only “cell count, replicate 2” (4 entries from above):
ND-B22 (GeneID 34747) [DRSC03193] = 6174
ND-B22 (GeneID 34747) [DRSC28526] = 4280
CG13476 (GeneID 39602) [DRSC10019] = 6268
CG4942 (GeneID 39044) [DRSC10462] = 428
